The results in this text go back to patent publication US20070004649A1, “Anti-influenza virus compound comprising biflavonoid-sialic acid glycoside” (The Kitasato Institute, priority 2003, published 2007).

Amino acid sequences for entries named in this document (tags omitted).
UniProt P03468, whole entry: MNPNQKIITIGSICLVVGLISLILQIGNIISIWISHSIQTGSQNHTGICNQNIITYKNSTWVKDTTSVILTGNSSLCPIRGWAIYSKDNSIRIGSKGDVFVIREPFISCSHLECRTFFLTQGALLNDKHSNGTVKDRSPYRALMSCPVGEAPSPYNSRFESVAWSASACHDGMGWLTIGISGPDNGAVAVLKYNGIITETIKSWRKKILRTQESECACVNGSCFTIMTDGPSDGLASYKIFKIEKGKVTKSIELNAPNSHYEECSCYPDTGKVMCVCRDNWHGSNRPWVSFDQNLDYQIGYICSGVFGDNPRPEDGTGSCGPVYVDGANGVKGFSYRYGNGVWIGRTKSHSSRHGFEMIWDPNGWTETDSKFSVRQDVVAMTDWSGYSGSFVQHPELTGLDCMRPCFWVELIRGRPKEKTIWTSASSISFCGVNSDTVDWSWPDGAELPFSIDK

For the assay, the target named is A/PR/8/34 virus sialidase (Influenza A virus, UniProt P03468). The assay is described as follows: Inhibitory activity against influenza A/PR/8/34 virus sialidase (4-MU-NeuAc substrate, HA vaccine as enzyme). The format is biochemical, influenza virus A/PR/8/34 (H1N1 subtype).

With “(R)-7″-O-(N-acetylneuraminyl)-7,4-di-O-methylamentoflavone [Gin-Neu-1-(R)]”, the “50% inhibitory concentration (IC50), A/PR/8/34 virus sialidase” value amounted to 5 µg/mL.
